PubChem BioAssay AID1224833 | University of Georgia, 2016
The deposit covers about 12,000 reagents; this is a random part of them. About 5,600 of all reagents (46%) count as active. 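Active calls cover z-scores past 1 in both directions, so they include lowered as well as raised rotavirus replication.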 A number with no mark means an inactive call.

- Screen: 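Human genes whose knock-down alters rotavirus replication in monkey cells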 (primary screen)
- System: monkey MA104 kidney cells
- Knock-down reagent: siRNA pool against human genes, 50 nM
- Timing: 48 h knock-down before infection; read 24 h after infection
- Challenge: infection with rotavirus strain RV3 two days after transfection; infectious dose for this stage not given
- Measurement: 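Rotavirus antigen per well by fluorescent immunoassay, normalised to non-targeting control wells on each plate and given as a standard z-score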
- Reading the numbers: z-score vs non-targeting control: higher = more rotavirus replication than with non-targeting control
- Hit rule: In these data the active calls have z-score vs non-targeting control at about -1 or lower, or at about 1 or higher
- Meaning of the calls: active = z-score beyond 1 either way; inactive = z-score within 1 of zero

Which result is listed for EXD2 (GeneID 55218)?
z-score vs non-targeting control: 0.744

Which result is listed for SOHLH2 (GeneID 54937)?
z-score vs non-targeting control: 1.58 (active)

How did the screen score ENG (GeneID 2022)?
z-score vs non-targeting control: -0.809

With PRAMEF8 (GeneID 391002), what was measured?
z-score vs non-targeting control: -3.81 (active)

With ZBTB10 (GeneID 65986), what was measured?
z-score vs non-targeting control: -0.615

With RTL9 (GeneID 57529), what was measured?
z-score vs non-targeting control: 0.848

Which result is listed for IL17D (GeneID 53342)?
z-score vs non-targeting control: 0.646

For BTN2A1 (GeneID 11120), how do the results read?
z-score vs non-targeting control: -1.33 (active)

With STARD10 (GeneID 10809), what was measured?
z-score vs non-targeting control: -0.937

For RPRML (GeneID 388394), how do the results read?
z-score vs non-targeting control: -1.05 (active)

How did the screen score TNFRSF11B (GeneID 4982)?
z-score vs non-targeting control: 0.597

For CBS (GeneID 875), what was measured?
z-score vs non-targeting control: -1.59 (active)

What is on record for DNAJC17 (GeneID 55192)?
z-score vs non-targeting control: 0.787

With LMAN2L (GeneID 81562), what does the deposit list?
z-score vs non-targeting control: -1.56 (active)

What did the screen give for BPIFB6 (GeneID 128859)?
z-score vs non-targeting control: -1.73 (active)

What did the screen give for CCDC93 (GeneID 54520)?
z-score vs non-targeting control: 1.18 (active)

With PCBP3 (GeneID 54039), how do the results read?
z-score vs non-targeting control: -1.13 (active)

What is on record for CASS4 (GeneID 57091)?
z-score vs non-targeting control: -1.02 (active)

What did the screen give for CCNG1 (GeneID 900)?
z-score vs non-targeting control: -1.31 (active)

For GPHB5 (GeneID 122876), what does the deposit list?
z-score vs non-targeting control: 0.305

With NT5DC1 (GeneID 221294), what does the deposit list?
z-score vs non-targeting control: 1.23 (active)

For HS3ST6 (GeneID 64711), what does the deposit list?
z-score vs non-targeting control: 1.43 (active)

With ZNF75D (GeneID 7626), how do the results read?
z-score vs non-targeting control: -1.05 (active)

What did the screen give for TPP2 (GeneID 7174)?
z-score vs non-targeting control: -0.704

With AMY1B (GeneID 277), how do the results read?
z-score vs non-targeting control: -0.812

With SLC7A6 (GeneID 9057), what was measured?
z-score vs non-targeting control: -0.703

With TBC1D16 (GeneID 125058), what was measured?
z-score vs non-targeting control: -0.155

What did the screen give for STARD3 (GeneID 10948)?
z-score vs non-targeting control: 1.7 (active)

For SETD3 (GeneID 84193), what was measured?
z-score vs non-targeting control: -0.19

For CWC25 (GeneID 54883), what was measured?
z-score vs non-targeting control: -1.11 (active)

With GLIS3 (GeneID 169792), how do the results read?
z-score vs non-targeting control: -1.93 (active)

Which result is listed for C9orf152 (GeneID 401546)?
z-score vs non-targeting control: -1.49 (active)

With MOB3B (GeneID 79817), what does the deposit list?
z-score vs non-targeting control: -0.552

For VCAN (GeneID 1462), what does the deposit list?
z-score vs non-targeting control: 0.0919

For SLC25A20 (GeneID 788), what was measured?
z-score vs non-targeting control: -1.3 (active)

For ZNF324 (GeneID 25799), what was measured?
z-score vs non-targeting control: 0.521

How did the screen score SPAM1 (GeneID 6677)?
z-score vs non-targeting control: -2.41 (active)

For ADH5 (GeneID 128), how do the results read?
z-score vs non-targeting control: -2.48 (active)

Which result is listed for NOB1 (GeneID 28987)?
z-score vs non-targeting control: -0.213

What did the screen give for NELFA (GeneID 7469)?
z-score vs non-targeting control: -1.27 (active)

What is on record for HAP1 (GeneID 9001)?
z-score vs non-targeting control: -0.0052

For GPR62 (GeneID 118442), what does the deposit list?
z-score vs non-targeting control: -0.594

For BAMBI (GeneID 25805), what does the deposit list?
z-score vs non-targeting control: -0.151

With RAB33B (GeneID 83452), how do the results read?
z-score vs non-targeting control: -0.708

For HSFY2 (GeneID 159119), how do the results read?
z-score vs non-targeting control: -0.874

With H3C12 (GeneID 8356), how do the results read?
z-score vs non-targeting control: 1.4 (active)

What did the screen give for RAMP1 (GeneID 10267)?
z-score vs non-targeting control: -2.06 (active)
